Two substances from patent US11458198B2, “HPV epitopes targeted by T cells infiltrating cervical malignancies for use in vaccines” (Academisch Ziekenhuis Leiden H.O.D.N. LUMC, priority 2007, dated 2022) can be followed below.

For this data set, the system named is HPV-specific CD4+ and CD8+ T cells. Kind of data set: HLA restriction and minimal epitope (blocking antibodies, partially HLA matched APC, IFNγ ELISPOT). In kind it is cell-based, human. The settings on record: tumor-infiltrating CD8+ T cells, discussion. Here is the method: MHC class II blocking experiments were performed as reported before using murine monoclonal antibodies against HLA-DR (B8.11.2), HLA-DQ (SPV.L3) and HLA-DP (B7/21) (van der Burg et al. 1999). Peptide-pulsed APC were incubated with anti-MHC class II antibodies for 2 hours prior to the addition of T cells.
Enumeration of IFNγ producing T cells as measured by intracellular cytokine staining was performed as described earlier (de Jong et al. 2005). Briefly, APC were loaded with cognate peptide or recombinant protein and incubated with T cell cultures. After 1 hour of incubation 10 μg/ml Brefeldin A (Sigma) was added and incubated overnight. Hereafter the cells were fixed with 4% paraformaldehyde (Sigma) and permeabilized with 0.1% Saponin. The samples were subsequently stained with CD4-APC, CD8-PerCP and IFNγ-PE and analyzed by flow cytometry. The minimal peptide recognized by CD8 T cells was analysed by IFNγ ELISPOT (van der Burg et al. 2001, Welters et al. 2006, de Jong et al. 2002). CD8 T cell lines were seeded in triplicate wells at a density of 2×104 on a Multiscreen 96-well plate (Millipore, Etten-Leur, The Netherlands) coated with an IFNγ catch antibody (Mabtech. Nacha, Sweden). The microcultures were stimulated with 5 μg/ml 10-mer peptides and incubated overnight. […] The number of spots was analysed on a fully automated computer assisted video imaging system (BIOSYS). […]

For the substance “HPV16 E7.11-20: known HLA-A*0201-restricted CD8 epitope of HPV16 E7 (Evans et al. 1997, Oerke et al. 2005) [reference compound]”, the “HLA restriction of CD8+ T cells recognizing the epitope” value is recorded as “HLA-A*0201”.
In the case of “HPV16E6.52-61: amino acids 52-61 of HPV16 E6 protein (FAFRDLCIVY; Human papillomavirus type 16)”, the “HLA restriction of CD8+ T cells recognizing the epitope” value is on record as “HLA-B57”.
